Measurements published in US20090088377A1, “CYSTEIC ACID DERIVATIVES OF ANTI-VIRAL PEPTIDES” (priority 2007, published 2009).

System: HIV-1 IIIB
Assay: Anti-HIV efficacy evaluation in fresh human PBMCs (albumin conjugates vs original peptides)
Type: cell-based
Settings: PBMC-based assay against HIV-1 IIIB, in words
Procedure: HIV-1 IIIB was obtained through the AIDS Research and Reference Reagent Program, Division of AIDS, NIAID, NIH courtesy of Dr. Robert C. […] Fresh human peripheral blood mononuclear cells (PBMCs), seronegative for HIV and HBV, were isolated from blood of screened donors (Biological Specialty Corporation; Colmar, Pa.) using Lymphocyte Separation Medium (LSM; Cellgro® by Mediatech, Inc.; density 1.078+/−0.002 g/ml) following the manufacturer's instructions. Cells were stimulated by incubation in 4 μg/mL Phytohemagglutinin (PHA; Sigma) for 48-72 hours. Mitogenic stimulation was maintained by the addition of 20 U/mL recombinant human IL-2 (R&D Systems, Inc) to the culture medium. PHA-stimulated PBMCs from at least two donors were pooled, diluted in fresh medium and added to 96-well plates at 5×10^4 cells/well. Cells were infected (final MOI≅0.1) in the presence of 9 different concentrations of test compounds (triplicate wells/concentration) and incubated for 7 days. […] Following removal of supernatant samples, compound cytotoxicity was measured by the addition of 3-(4,5-dimethylthiazol-2-yl)-5-(3-carboxymethoxyphenyl)-2-(4-sulfophenyl)-2H-tetrazolium (MTS; CellTiter 96 Reagent, Promega) following the manufacturer's instructions. […] AZT (nucleoside reverse transcriptase inhibitor) was used as the assay control compound.

Row | Substance | Antiviral activity compared to the original peptide inhibitors
1 | C preformed conjugate-Compound VII: HSA Cys34 coupled via MPA, absence of AEEA linker, to the N-terminus of C34 | essentially equipotent to C34 peptide and T-20
2 | F preformed conjugate-Compound X: acetylated T-20 with C-terminal K(εN)-AEEA-MPA coupled to Cys34 of HSA | significant decrease in the antiviral activity
3 | E preformed conjugate-Compound IX: HSA Cys34 coupled via MPA-AEEA to the N-terminal end of T-20 | excellent retention of antiviral activity
